Experimental data taken from patent publication US12559474B2, “Triazine derivatives having virus replication inhibitory activity and pharmaceutical composition comprising the same” (priority 2021, dated 2026).

Legend:
[1] = tested on: SARS-CoV-2; assay: Inhibitory activity of cytopathic effect (CPE) in Vero E6/TMPRSS2 cells infected with SARS-CoV-2; format: cell-based; settings: 50% SARS-CoV-2 infected cell death inhibitory concentration; VeroE6/TMPRSS2 cells, 3 days culture; class symbols
[2] = target: SARS-CoV-2 3CL protease (Severe acute respiratory syndrome coronavirus 2, UniProt P0DTD1); settings: 50% SARS-CoV-2 3CL protease inhibitory concentration, given as class symbols

Row | SMILES | EC50 [1] [nM] | IC50 [2] [nM]
1 | O=c1[nH]cccc1Cn1c(=O)nc(Nc2cc3cn([C@H]4CCC[C@@H]4O)nc3cc2Cl)n(Cc2cc(F)c(F)c(F)c2)c1=O (relative stereo) | 1000 to 10000 | < 100
2 | Cc1cncc(-n2c(=O)nc(Nc3cc4cn(C)nc4cc3Cl)n(Cc3cccc(Cl)c3)c2=O)c1 | < 1000 | < 100
3 | Cc1cncc(-n2c(=O)nc(Nc3ccc4nc(NCC(F)F)sc4c3)n(Cc3ccc(F)c(C#N)c3)c2=O)c1 | 1000 to 10000 | < 100
4 | Cc1cncc(-n2c(=O)nc(Nc3cc4cn(C)nc4cc3Cl)n(Cc3cccc(C#N)c3)c2=O)c1 | < 1000 | < 100
